Compound potency records, mixed from different reports. Data source: NIAID ChemDB in PubChem.

All rows: whole-cell or culture tests; organism: Mycobacterium tuberculosis

Inhibition is in % at the dose shown (toxicity tests: loss of growth or viability). ECn is the concentration giving n% inhibition of infection, replication or growth. MIC bound: limit read from a one-dose screen. Rows are shuffled and stem from different studies. An empty or dashed field is not shown.

compound	dose	strain	read by	cell line	endpoint	mutations	value
CN(C)C/C=C(/c1ccc(Br)cc1)c1ccc(-c2ccc(Br)cc2)cc1	-	ALI 544	-	-	MIC	-	34 µg/mL
Cc1ccccc1CSc1ncccn1	6.25 µg/mL	H37Rv	-	-	inhibition	-	0%
CN(C)C/C=C(\c1ccc(I)cc1)c1ccc(-c2ccc(Br)cc2)cc1	-	ALI 282	-	-	MIC	-	≤4 µg/mL
CCCCCCC(C)c1ccc2c(c1)C(=O)c1nc3ccncc3c(=O)n1-2	-	H37Rv	-	-	MBC	-	2 µg/mL
Nc1nc(N)c2nc3c(ccc4ccccc43)nc2n1	-	H37Rv	BACTEC	-	MIC	-	1.56 µg/mL
COc1cccc(CSc2ncnc3nc[nH]c23)c1	6.25 µg/mL	H37Rv	-	-	inhibition	-	18%
N#CCC(=O)N/N=C(\c1ccccc1)C(c1ccccc1)C1(O)C(=O)Nc2c(Cl)ccc(Cl)c21	12.5 µg/mL	H37Rv	BACTEC	-	inhibition	-	-12%
O=C(O)c1cnccn1	-	W478	-	-	MIC	-	240 µg/mL
CN(C)CC=C(c1ccc(Br)cc1)c1ccc(-c2ccc(Br)cc2)cc1	-	ALI 452	-	-	MIC	-	≤4 µg/mL
CS(=O)(=O)OCCN1C(=O)NC(c2ccccc2)(c2ccccc2)C1=O	-	H37Rv	BACTEC	-	MIC bound	-	>12.5 µg/mL
COc1ccc(CSc2ncccn2)cc1	6.25 µg/mL	H37Rv	-	-	inhibition	-	0%
Cc1cc(OC2OC(CO)C(O)C(O)C2O)ccc1O	-	H37Rv	BACTEC	-	MIC	-	≥12.5 µg/mL
CO[C@H]1/C=C/O[C@@]2(C)Oc3c(C)c(O)c4c(O)c(c(/C=N/N5CCN(C)CC5)c(O)c4c3C2=O)NC(=O)/C(C)=C\C=C\[C@H](C)[C@H](O)[C@@H](C)[C@@H](O)[C@@H](C)[C@H](OC(C)=O)[C@@H]1C	-	Clinical isolate 10	-	-	MIC	-	0.5 µg/mL
COc1ccccc1CSc1ncccn1	6.25 µg/mL	H37Rv	-	-	inhibition	-	6%
CO[C@H]1/C=C/O[C@@]2(C)Oc3c(C)c(O)c4c(O)c(c(/C=N/N5CCN(C/C=C/c6ccccc6)CC5)c(O)c4c3C2=O)NC(=O)/C(C)=C\C=C\[C@H](C)[C@H](O)[C@@H](C)[C@@H](O)[C@@H](C)[C@H](OC(C)=O)[C@@H]1C	-	3147 (rifampin-sensitive)	-	-	MBC	-	0.05 µg/mL
O=C(O)c1cn(C2CC2F)c2c(Cl)c(N3CC4CCCNC4C3)c(F)cc2c1=O	-	43 (RFP-susceptible)	-	-	MIC	-	0.1 µg/mL
COc1cc2c(oc(=O)c3cc(C)cc(OC)c32)c2c(C3OC(C)C(O)C(C)(O)C3O)ccc(O)c12	-	H37Rv	BACTEC	-	MIC bound	-	≤12.5 µg/mL
Cc1cccc(CSc2ccncc2)c1	-	H37Ra	-	-	MIC	-	>12.8 µg/mL
O=C1c2cc(Br)ccc2-n2c1nc1ccccc1c2=O	-	H37Rv	-	-	MIC	-	0.06 µg/mL
COc1ccc2nc(N/N=C(\C)c3ccccn3)cc(C)c2c1	-	H37Rv	BACTEC	-	MIC bound	-	≤12.5 µg/mL
CS(=O)(=O)c1ccc2c(c1)C(=O)c1nc3ccncc3c(=O)n1-2	-	H37Rv	-	-	MIC	-	4 µg/mL
Cc1c(N2C[C@@H](N)C3(CC3)C2)c(F)cc2c(=O)c(C(=O)O)cn([C@@H]3C[C@@H]3F)c12	-	44 (RFP-resistant)	-	-	MIC	-	0.05 µg/mL
O=C1NC(=O)C2(O)NC(=O)NC2(O)N1	12.5 µg/mL	H37Rv	BACTEC	-	inhibition	-	21%
CO[C@H]1/C=C/O[C@@]2(C)Oc3c(C)c(O)c4c(O)c(c(/C=N/N5CCN(C)CC5)c(O)c4c3C2=O)NC(=O)/C(C)=C\C=C\[C@H](C)[C@H](O)[C@@H](C)[C@@H](O)[C@@H](C)[C@H](OC(C)=O)[C@@H]1C	-	TN635	-	-	MIC	-	>32 µg/mL
O=C(O)c1cn2c(n1)CN(c1cc3c(cc1[N+](=O)[O-])c(=O)c(C(=O)O)cn3-c1ccc(F)cc1F)CC2	-	ATCC35801	-	-	MIC	-	12.9 µM
O=C(C[C@@H](O)CCc1ccc(O)c(O)c1)O[C@H]1Cc2c(O)cc(O)cc2O[C@@H]1c1ccc(O)c(O)c1	-	H37Rv	BACTEC	-	MIC bound	-	>12.5 µg/mL
C/C=C/c1ccc2oc(-c3ccc(OC)c(OC)c3)c(C)c2c1	-	Clinical isolate 13 638	resazurin / absorbance	-	MIC	-	3.9 µg/mL
Cc1ccc(/C=C/C(=O)/C=C/c2ccc(C)o2)o1	-	H37Rv	BACTEC	VERO	MIC	-	12.5 µg/mL
O=c1nc(SCc2ccc(F)cc2)c2[nH]cnc2[nH]1	6.25 µg/mL	H37Rv	-	-	inhibition	-	0%
O=[N+]([O-])c1ccc(NC(=S)N=Nc2c(O)[nH]c3ccc(OC(F)(F)F)cc23)cc1	-	H37Rv	broth dilution / resazurin	-	EC50	-	3.77 µg/mL
CN1c2ccccc2CCC1CCc1ccc2c(c1)OCO2	-	MT2	-	-	MIC	-	169 µg/mL
CC(C)(C)n1cc(C(=O)O)c(=O)c2cc(F)c(N3CCC(N4CCCCC4)CC3)cc21	-	ATCC35801	-	-	MIC	-	1.82 µM
CCCc1ccc2oc(-c3ccc(O)c(OC)c3)c(C)c2c1	-	Clinical isolate 4851	resazurin / absorbance	-	MIC	-	7.8 µg/mL
CC(C)(C)n1cc(C(=O)O)c(=O)c2cc([N+](=O)[O-])c(N3CCC(O)(c4ccc(Cl)cc4)CC3)cc21	-	ATCC35801	-	-	MIC	-	3.29 µM
CC(C)(C)C1=CC(=O)C(C(C)(C)C)=CC1=O	128 µg/mL	H37Rv	BACTEC	-	inhibition	-	100%
Cn1c(O)c(N=NC(=S)NCc2ccccc2)c2cc(OC(F)(F)F)ccc21	-	H37Rv	broth dilution / resazurin	-	EC90	-	>100 µg/mL
COC(=O)c1c(C(N)=O)c(C)n(NC(=O)c2ccccc2)c1C	12.5 µg/mL	H37Rv	BACTEC	-	inhibition	-	19%
Cc1ccc2[nH]c(O)c(N=NC(=S)Nc3ccc(F)cc3)c2c1	-	H37Rv	broth dilution / resazurin	-	EC90	-	1.587 µg/mL
CN(C)C/C=C(/c1ccccc1)c1ccc(-c2ccc(Br)cc2)cc1	-	ALI 909	-	-	MIC	-	20 µg/mL
COc1ccccc1NC(=O)C(N=Nc1ccc(S(=O)(=O)Nc2nccc(C)n2)cc1)C(C)=O	6.25 µg/mL	H37Rv	resazurin	-	inhibition	-	-7%
NC1CN(c2c(F)cc3c(=O)c(C(=O)O)cn(C4CC4)c3c2Cl)CC12CC2	-	43 (RFP-susceptible)	-	-	MIC	-	0.78 µg/mL
CC(C)(C)c1nc2c(o1)C(=O)c1ccccc1C2=O	-	H37Rv	BACTEC	-	MIC bound	-	≤12.5 µg/mL
CCCCCCCCc1ccc2c(c1)C(=O)c1nc3ccncc3c(=O)n1-2	-	TN1037RFLP:H (DRUG sensitive)	-	-	MIC	-	≤0.015 µg/mL
CC(=O)NC[C@H]1CN(c2ccc(N3CCN(Cc4ccc([N+](=O)[O-])o4)CC3)c(F)c2)C(=O)O1	-	16 isolates (MDR)	-	-	Geometric mean MIC	-	4 µg/mL
O=C1c2cc(I)ccc2-n2c1nc1ncccc1c2=O	-	TN2557RFLF:P (MDR)	-	-	MIC	-	0.03 µg/mL
Cn1c(O)c(N=NC(=S)NC2CCCCC2)c2cc(OC(F)(F)F)ccc21	-	H37Rv	broth dilution / resazurin	-	EC50	-	19.8 µg/mL
CN(C)C/C=C(/c1ccc(-c2ccc(Br)cc2)cc1)c1ccc([N+](=O)[O-])cc1	-	H37Ra	-	-	MIC	-	36.5 µg/mL
COc1ccc(Sc2ccncc2)cc1OC	-	H37Ra	-	-	MIC	-	>12.8 µg/mL
CCN(CC)c1cc2oc3cc(N)cc(=N)c-3nc2cc1C	-	PZA-R	-	-	MIC	-	0.4 µg/mL
O=C(O)c1cnc(Cl)cn1	-	DHMH 4319	-	-	MIC	-	128 µg/mL
Cl.O=C(COc1ccc(Cl)cc1)NN1CCCCCC1	12.5 µg/mL	H37Rv	BACTEC	-	inhibition	-	20%
COCCOCc1ccc2c(c1)C(=O)c1nc3ccncc3c(=O)n1-2	-	H37Rv	-	-	MIC	-	0.13 µg/mL
NNC(=O)c1ccncc1	-	Clinical isolate 11	-	-	MIC	-	>100 µg/mL
CC(C)(C)n1cc(C(=O)O)c(=O)c2cc(F)c(N3CCN(Cc4ccc5c(c4)OCO5)CC3)cc21	-	ATCC35801	-	-	MIC	-	0.81 µM
O=C(CCCC(=O)N/N=C/c1c2ccccc2cc2ccccc12)N/N=C/c1c2ccccc2cc2ccccc12	-	H37Rv	BACTEC	-	MIC bound	-	>12.5 µg/mL
COc1ccc(Sc2ncccn2)cc1	6.25 µg/mL	H37Rv	-	-	inhibition	-	0%
CO[C@H]1/C=C/O[C@@]2(C)Oc3c(C)c(O)c4c(O)c(c(/C=N/N5CCN(C/C=C/c6ccccc6)CC5)c(O)c4c3C2=O)NC(=O)/C(C)=C\C=C\[C@H](C)[C@H](O)[C@@H](C)[C@@H](O)[C@@H](C)[C@H](OC(C)=O)[C@@H]1C	-	2227 (MDR)	-	-	MIC	-	1 µg/mL
CN(C)C/C=C(\c1ccc(N)cc1)c1ccc(-c2ccc(Br)cc2)cc1	-	H37Rv	-	-	MIC	-	9.8 µg/mL
O=c1c2ccccc2oc2c(Cl)cc(Cl)cc12	-	H37Rv	BACTEC	-	MIC bound	-	>12.5 µg/mL
O=C(O)c1cn(-c2ccc(F)cc2F)c2cc(N3CCC(O)(c4ccc(Cl)cc4)CC3)c([N+](=O)[O-])cc2c1=O	-	ATCC35801	-	-	MIC	-	5.92 µM
C/C(=N\NC(=O)C[N+](C)(C)C)C(CN(C)C)C(=O)Nc1ccccc1.[Cl-]	12.5 µg/mL	H37Rv	BACTEC	-	inhibition	-	0%
CN[C@@H]1[C@H](O[C@H]2[C@H](O[C@H]3[C@H](O)[C@@H](O)[C@H](N=C(N)N)[C@@H](O)[C@@H]3N=C(N)N)O[C@@H](C)[C@]2(O)C=O)O[C@@H](CO)[C@H](O)[C@H]1O	-	Clinical isolate 9	-	-	MIC	-	100 µg/mL
COc1ccc(NC(=S)N=Nc2c(O)[nH]c3ccc(OC(F)(F)F)cc23)cc1	-	H37Rv	broth dilution / resazurin	-	EC50	-	3.339 µg/mL
CO[C@H]1/C=C/O[C@@]2(C)Oc3c(C)c(O)c4c(O)c(c(/C=N/N5CCN(C)CC5)c(O)c4c3C2=O)NC(=O)/C(C)=C\C=C\[C@H](C)[C@H](O)[C@@H](C)[C@@H](O)[C@@H](C)[C@H](OC(C)=O)[C@@H]1C	-	HUG.MB.3649	resazurin / absorbance	-	MIC	inhA mutant isoniazid resistant	0.001 µg/mL
CCCCCCCCS(=O)(=O)c1ccc2c(c1)C(=O)c1nc3c(OC)cccc3c(=O)n1-2	-	H37Rv	-	-	MIC	-	>8 µg/mL
COc1ccc(CCc2cc(OC)c3ccccc3n2)cc1OC	-	MT1	-	-	MIC	-	39 µg/mL
Cn1c(O)c(N=NC(=S)Nc2ccc(Br)cc2)c2cc(OC(F)(F)F)ccc21	-	H37Rv	broth dilution / resazurin	-	EC50	-	0.612 µg/mL
NNC(=O)c1ccncc1	-	Isolate UT2419 (katG S315T mutation)	-	-	MIC	-	4 µg/mL
CN[C@@H]1[C@H](O[C@H]2[C@H](O[C@H]3[C@H](O)[C@@H](O)[C@H](N=C(N)N)[C@@H](O)[C@@H]3N=C(N)N)O[C@@H](C)[C@]2(O)C=O)O[C@@H](CO)[C@H](O)[C@H]1O	-	9465 (streptomycin isoniazid-R)	-	-	MIC	-	40 µg/mL
COc1c(N2CCNC(C)C2)c(F)cc2c(=O)c(C(=O)O)cn(C3CC3)c12	-	Strain 460	-	-	MIC	-	0.25 µg/mL
C=CCNC(=S)N=Nc1c(O)n(C)c2ccc(OC(F)(F)F)cc12	-	H37Rv	broth dilution / resazurin	-	EC90	-	>100 µg/mL
Cc1ccc(N2C(=O)CC3(CCCC3)C2=O)cc1Cl	12.5 µg/mL	H37Rv	BACTEC	-	inhibition	-	-6%
C/C=C/c1ccc2oc(-c3ccc(O)c(OC)c3)c(C)c2c1	-	Clinical isolate 73-A	resazurin / absorbance	-	MIC	isoniazid rifampicin pyrazinamide resistant	1.9 µg/mL
O=C(O)c1cn2c(n1)CN(c1cc3c(cc1[N+](=O)[O-])c(=O)c(C(=O)O)cn3C1CC1)CC2	-	ATCC35801	-	-	MIC	-	3.78 µM
CO[C@H]1/C=C/O[C@@]2(C)Oc3c(C)c(O)c4c(=O)c(c5oc6cc(N7CCN(C(C)C)CC7)cc(=O)c6nc5c4c3=C2O)NC(=O)/C(C)=C\C=C\[C@H](C)[C@H](O)[C@@H](C)[C@@H](O)[C@@H](C)[C@H](OC(C)=O)[C@@H]1C	-	2219 (rifampin-resistant)	-	-	MBC	-	0.8 µg/mL
Cc1ccc2[nH]c(O)c(N=NC(=S)Nc3ccc([N+](=O)[O-])cc3)c2c1	-	H37Rv	broth dilution / resazurin	-	EC50	-	>100 µg/mL
CN(C)Nc1cc(N)c(N=Nc2ccccc2)c(=O)[nH]1	-	H37Rv	BACTEC	-	MIC bound	-	>12.5 µg/mL
CC(=O)NC[C@H]1CN(c2ccc(N3CCOCC3)c(F)c2)C(=O)O1	-	Strain 40	-	-	MIC	-	0.25 µg/mL

Again, the opening 9 rows:

compound	dose	strain	read by	cell line	endpoint	mutations	value
CN(C)C/C=C(/c1ccc(Br)cc1)c1ccc(-c2ccc(Br)cc2)cc1	-	ALI 544	-	-	MIC	-	34 µg/mL
Cc1ccccc1CSc1ncccn1	6.25 µg/mL	H37Rv	-	-	inhibition	-	0%
CN(C)C/C=C(\c1ccc(I)cc1)c1ccc(-c2ccc(Br)cc2)cc1	-	ALI 282	-	-	MIC	-	≤4 µg/mL
CCCCCCC(C)c1ccc2c(c1)C(=O)c1nc3ccncc3c(=O)n1-2	-	H37Rv	-	-	MBC	-	2 µg/mL
Nc1nc(N)c2nc3c(ccc4ccccc43)nc2n1	-	H37Rv	BACTEC	-	MIC	-	1.56 µg/mL
COc1cccc(CSc2ncnc3nc[nH]c23)c1	6.25 µg/mL	H37Rv	-	-	inhibition	-	18%
N#CCC(=O)N/N=C(\c1ccccc1)C(c1ccccc1)C1(O)C(=O)Nc2c(Cl)ccc(Cl)c21	12.5 µg/mL	H37Rv	BACTEC	-	inhibition	-	-12%
O=C(O)c1cnccn1	-	W478	-	-	MIC	-	240 µg/mL
CN(C)CC=C(c1ccc(Br)cc1)c1ccc(-c2ccc(Br)cc2)cc1	-	ALI 452	-	-	MIC	-	≤4 µg/mL